Anti-infective test results gathered from many reports (values: NIAID ChemDB through PubChem).

Common to all: growth or infection tests; organism: Sindbis virus; cells: VERO; measure: EC50

Blank or dashed fields: not listed here. ECn: concentration that inhibits the pathogen or its effect by n%. Conditions beyond the fields shown may differ between rows.

smiles	read by	value
O=C(NS(=O)(=O)OCCOCn1ccc(=O)[nH]c1=O)O[C@H]1O[C@H](COCc2ccccc2)[C@@H](OCc2ccccc2)[C@H](OCc2ccccc2)[C@H]1OCc1ccccc1	plaque count	25 µg/mL
CC1=Nn2c(nnc2-c2cn(-c3ccccc3)nc2-c2ccccc2)SC1	cytopathic effect	>16 µg/mL
NC(=S)c1cncc([C@@H]2O[C@H](CO)[C@@H](O)[C@@H]2O)c1	cytopathic effect	≥100 µg/mL
Nc1ccn([C@@H]2C=C(CO)[C@@H](O)[C@H]2O)c(=O)n1	cytopathic effect	0.2 µg/mL
Cc1ccn2c(C3SCCS3)cnc2c1		>1000 µM
CC(=O)OC[C@H]1O[C@H](OC(=O)NS(=O)(=O)OC[C@H]2O[C@@H](n3ccc(=O)[nH]c3=O)[C@H](OC(C)C)[C@@H]2OC(C)C)[C@H](OC(C)=O)[C@@H](OC(C)=O)[C@@H]1OC(C)=O	plaque count	>100 µg/mL
c1ccc(C2=Nn3c(nnc3-c3cn(-c4ccccc4)nc3-c3ccccc3)SC2)cc1	cytopathic effect	>16 µg/mL
N#Cc1cncc([C@H]2O[C@H](CO)[C@@H](O)[C@@H]2O)c1	cytopathic effect	≥100 µg/mL
C#C[C@H](O)C1=C[C@@H](n2cnc3c(N)ncnc32)[C@H](O)[C@@H]1O	cytopathic effect	>100 µg/mL
C[C@@]1(O)[C@@H](CO)O[C@@H](n2cnc3c(N)ncnc32)[C@@H]1O	cytopathic effect	>100 µg/mL
CC[C@@H](O)C1=C[C@@H](n2cnc3c(N)ncnc32)[C@H](O)[C@@H]1O	cytopathic effect	>400 µg/mL
NC(=O)c1cncc([C@H]2O[C@H](CO)[C@H](O)[C@@H]2O)c1	cytopathic effect	≥100 µg/mL
CC(=O)OCCOCN1C(=O)C=CN(COCCO)S1(=O)=O		>400 µg/mL
CCOC(=O)C1Sc2nnc(-c3cn(-c4ccccc4)nc3-c3ccccc3)n2NC1=O	cytopathic effect	>16 µg/mL
CC(=O)OCCOCN1C=CC(=O)NS1(=O)=O		>400 µg/mL
CC(=O)OC[C@H]1O[C@@H](OC(=O)NS(=O)(=O)OC[C@H]2O[C@@H](n3ccc(=O)[nH]c3=O)[C@H](OC(C)C)[C@@H]2OC(C)C)[C@@H](OC(C)=O)[C@@H](OC(C)=O)[C@@H]1OC(C)=O	plaque count	100 µg/mL
CC1(C)[C@@H](CO)CC[C@@]1(C)Cn1cnc2c(Cl)ncnc21	cytopathic effect	>400 µg/mL
NC(=O)c1cncc([C@@H]2O[C@H](CO)[C@@H](O)[C@@H]2O)c1	cytopathic effect	≥100 µg/mL
Cc1ccn2c(C(SCCc3ccccc3)SCCc3ccccc3)cnc2c1		>1000 µM
Nc1nc2c(ncn2CCCC(O)CF)c(=O)[nH]1	cytopathic effect	>400 µg/mL
N#Cc1cncc([C@H]2O[C@H](CO)[C@H](O)[C@@H]2O)c1	cytopathic effect	≥100 µg/mL
Nc1ncnc2c1ncn2C1CC(COP(=O)(O)O)[C@@H](O)[C@H]1O	cytopathic effect	≥10 µg/mL
CC(C)O[C@@H]1[C@H](OC(C)C)[C@@H](COS(=O)(=O)NC(=O)O[C@H]2O[C@H](COC(=O)c3ccccc3)[C@@H](OC(=O)c3ccccc3)[C@H](OC(=O)c3ccccc3)[C@H]2OC(=O)c2ccccc2)O[C@H]1n1ccc(=O)[nH]c1=O	plaque count	>100 µg/mL
CC(=O)Nc1nc2c(CC(O)CO)nc(C)n2c(=O)[nH]1	cytopathic effect	>200 µg/mL
NC1=CC(N)=NS(=O)(=O)N1COCCO		>400 µg/mL
CC(C)O[C@@H]1[C@H](OC(C)C)[C@@H](COS(=O)(=O)NC(=O)O[C@@H]2C[C@@H](OC(=O)c3ccccc3)C[C@@H](COC(=O)c3ccccc3)O2)O[C@H]1n1ccc(=O)[nH]c1=O	plaque count	>200 µg/mL
CC=NC(=N)c1nc(-c2ccccc2)n(COCCO)n1	cytopathic effect	>200 µg/mL
Cc1ccn2c(C3OCCS3)cnc2c1		>1000 µM
CC(=O)N[C@H]1[C@@H](OC(=O)NS(=O)(=O)OC[C@H]2O[C@@H](n3ccc(=O)[nH]c3=O)[C@H](OC(C)C)[C@@H]2OC(C)C)O[C@H](COC(=O)c2ccccc2)[C@@H](OC(=O)c2ccccc2)[C@@H]1OC(=O)c1ccccc1	plaque count	>100 µg/mL
Nc1nc(F)nc2c1ncn2[C@@H]1C=C(CO)[C@@H](O)[C@H]1O	cytopathic effect	1 µg/mL
Nc1ncnc2c1ncn2[C@@H]1C[C@H](CO)[C@@H](O)[C@H]1O	cytopathic effect	2 µg/mL
O=c1ccn([C@@H]2O[C@H](CO)[C@](O)(C(F)(F)F)[C@H]2O)c(=O)[nH]1	cytopathic effect	>400 µg/mL
C[C@H]1O[C@@H](c2n[nH]c(C(N)=O)c2O)[C@H](O)[C@@H]1O	cytopathic effect	>200 µg/mL
C=C(N=CC)c1nc(-c2cccc(OC)c2)n(C2O[C@H](CO)[C@@H](O)[C@H](O)[C@H]2O)n1	cytopathic effect	>200 µg/mL
C=CCc1nc(C)n2c(=O)[nH]c(NC(C)=O)nc12	cytopathic effect	>200 µg/mL
CC(C)O[C@@H]1[C@H](OC(C)C)[C@@H](COS(=O)(=O)NC(=O)O[C@H]2O[C@H](COC(=O)c3ccccc3)[C@H](OC(=O)c3ccccc3)[C@H](OC(=O)c3ccccc3)[C@H]2OC(=O)c2ccccc2)O[C@H]1n1ccc(=O)[nH]c1=O	plaque count	100 µg/mL
CC=NC(=N)c1nc(-c2ccc(C)cc2)n(Cc2ccccc2)n1	cytopathic effect	>10 µg/mL
CC1(C)[C@@H](CO)CC[C@@]1(C)Cn1nnc2c(=O)[nH]cnc21	cytopathic effect	>400 µg/mL
N#Cc1cncc([C@@H]2O[C@H](CO)[C@H](O)[C@@H]2O)c1	cytopathic effect	≥100 µg/mL
CC(=O)OCCOCN1C(=N)/C(=C(\C)O)C(N)=NS1(=O)=O		>400 µg/mL
Cc1cn(C(CF)CCCO)c(=O)[nH]c1=O	cytopathic effect	>400 µg/mL
CC(=O)OCCOCN1C=CC(=O)N(COCCOC(C)=O)S1(=O)=O		>400 µg/mL
CC1(C)[C@@H](CCO)C[C@H]1n1nnc2c(Cl)nc(N)nc21	cytopathic effect	>200 µg/mL
Nc1nccc2c1ncn2[C@@H]1C[C@H](CO)[C@@H](O)[C@H]1O	cytopathic effect	4 µg/mL
Nc1ncnc2c1ncn2[C@@H]1C=C(CO)[C@@H](O)[C@H]1O	cytopathic effect	7 µg/mL
C=C(N=CC)c1nc(-c2ccc(C)cc2)n(C2O[C@H](CO)[C@@H](O)[C@H](O)[C@H]2O)n1	cytopathic effect	>100 µg/mL
CC1(C)[C@@H](CCO)C[C@H]1n1cnc2c(N)ncnc21	cytopathic effect	>400 µg/mL
Nc1ncnc2c1ncn2[C@H]1C[C@H](O)[C@@H](/C=N/O)O1	cytopathic effect	>100 µg/mL
Cc1nc(Cc2ccccc2)c2[nH]c(=S)[nH]c(=O)n12	cytopathic effect	>100 µg/mL
CC1(C)[C@@H](CO)CC[C@@]1(C)Cn1cnc2c(=O)[nH]cnc21	cytopathic effect	>400 µg/mL
C=C(N=CC)c1nc(-c2cccc(C)c2)n(C2O[C@H](CO)[C@@H](O)[C@H](O)[C@H]2O)n1	cytopathic effect	>100 µg/mL
Nc1ncnc2c1ncn2[C@@H]1C=C(CO)[C@@H](O)[C@H]1O	cytopathic effect	>40 µg/mL
NC1=CC(c2ccccc2)=Nn2c(nnc2-c2cn(-c3ccccc3)nc2-c2ccccc2)S1	cytopathic effect	>16 µg/mL
Nc1ncnc2c1ncn2[C@H]1C[C@H](O)[C@@H](C=O)O1	cytopathic effect	>200 µg/mL
CC1(C)[C@@H](CCO)C[C@H]1n1cnc2c(=O)[nH]cnc21	cytopathic effect	>400 µg/mL
Nc1ncnc2c1ncn2C[C@H](O)CO	cytopathic effect	>400 µg/mL
OC[C@H]1O[C@H](c2cncc(Br)c2)[C@@H](O)[C@@H]1O	cytopathic effect	≥100 µg/mL
CC(=O)Nn1c(-c2cn(-c3ccccc3)nc2-c2ccccc2)n[nH]c1=S	cytopathic effect	>80 µg/mL
CC=NC(=N)c1nc(-c2cccc(C)c2)n(COCCO)n1	cytopathic effect	>200 µg/mL
Nn1c(-c2cn(-c3ccccc3)nc2-c2ccccc2)n[nH]c1=S	cytopathic effect	>16 µg/mL
Nc1ncnc2c1ncn2[C@@H]1O[C@H](C=NOCc2ccccc2)[C@@H](O)[C@H]1O	cytopathic effect	>100 µg/mL
Nc1nc(Cl)c2ccn([C@H]3CO[C@@H](CO)C3)c2n1	cytopathic effect	>200 µg/mL
CC=NC(=N)c1nc(-c2ccc(C)cc2)n(C/C=C/c2ccccc2)n1	cytopathic effect	>10 µg/mL
O=C1CSc2nnc(-c3cn(-c4ccccc4)nc3-c3ccccc3)n2N1	cytopathic effect	>16 µg/mL
CSCC1=C[C@@H](n2cnc3c(N)ncnc32)[C@H](O)[C@@H]1O	cytopathic effect	>200 µg/mL
C=C(N=CC)c1nc(-c2ccccc2)n([C@@H]2O[C@H](CO)[C@@H](O)[C@H]2O)n1	cytopathic effect	>100 µg/mL
Nc1nc(Cl)c2ncn([C@H]3CO[C@@H](CO)C3)c2n1	cytopathic effect	>400 µg/mL
Cc1cccn2c(C3SCCS3)cnc12		>1000 µM

The last 10 rows once more:

| smiles | read by | value |
|---|---|---|
| CC=NC(=N)c1nc(-c2cccc(C)c2)n(COCCO)n1 | cytopathic effect | >200 µg/mL |
| Nn1c(-c2cn(-c3ccccc3)nc2-c2ccccc2)n[nH]c1=S | cytopathic effect | >16 µg/mL |
| Nc1ncnc2c1ncn2[C@@H]1O[C@H](C=NOCc2ccccc2)[C@@H](O)[C@H]1O | cytopathic effect | >100 µg/mL |
| Nc1nc(Cl)c2ccn([C@H]3CO[C@@H](CO)C3)c2n1 | cytopathic effect | >200 µg/mL |
| CC=NC(=N)c1nc(-c2ccc(C)cc2)n(C/C=C/c2ccccc2)n1 | cytopathic effect | >10 µg/mL |
| O=C1CSc2nnc(-c3cn(-c4ccccc4)nc3-c3ccccc3)n2N1 | cytopathic effect | >16 µg/mL |
| CSCC1=C[C@@H](n2cnc3c(N)ncnc32)[C@H](O)[C@@H]1O | cytopathic effect | >200 µg/mL |
| C=C(N=CC)c1nc(-c2ccccc2)n([C@@H]2O[C@H](CO)[C@@H](O)[C@H]2O)n1 | cytopathic effect | >100 µg/mL |
| Nc1nc(Cl)c2ncn([C@H]3CO[C@@H](CO)C3)c2n1 | cytopathic effect | >400 µg/mL |
| Cc1cccn2c(C3SCCS3)cnc12 |  | >1000 µM |